Consider 26 compounds from PubChem BioAssay AID602405 (Broad Institute, 2012).

Only a part is listed here, and it is no random draw. Activity calls are given as the source filed them. Rule as the data show it: active = inhibition above about 16% (passing the limit was not always enough); inconclusive = no clear call, values can overlap the other calls; inactive = below that.

The assay concerns UDP-N-acetylbacillosamine N-acetyltransferase PglD (Campylobacter jejuni). Description: C. jejuni PglD acetyltransferase inhibitors, primary screen, biochemical, DTNB colorimetric, single point (AID 602405). To be noted: purified PglD enzyme, DTNB colorimetric CoA detection; at 12.5 µM; stronger effect = higher value.
A word on the inhibition: it is the relative decrease from the control value, in per cent. Consider `CCC(CO)(C(=O)OC1CN2CCC1CC2)c1ccccc1` (stereo unspecified), for which the inhibition was inactive: -2.9%.
With `COc1cccc(C(c2nnnn2C2CCCC2)N2CCC(n3c(=O)[nH]c4ccccc43)CC2)c1OC` (stereo unspecified), the inhibition was inactive: 2.12%.
`COc1cc(OC)cc(C(=O)NCC2(N3CCOCC3)CCCCC2)c1`: the inhibition is inactive: 0.934%.
Take `COc1cccc(C(=O)N(c2cc(C)cc(C)c2)C2CCN(C(=O)OC(C)(C)C)CC2)c1`: the inhibition is inactive: 3.88%.
The figure for `CN1CCC(Nc2ccc(Cl)cc2)CC1` is inactive: 1.46%; for `CN1CCC(Nc2ccc(F)c(Cl)c2)CC1` it is inactive: -11.3%.
On to `CCOc1ncccc1C(=O)NCC1(N2CCOCC2)CCCCC1`, for which the inhibition is inactive: -5.28%.
For `O=c1[nH]c2ccccc2n1C1CCN(C(c2cc3ccccc3o2)c2nnnn2C2CCCC2)CC1` (stereo unspecified), the inhibition is inactive: 3.3%.
As for `CCCOc1ccc(C(=O)NCC2(N(C)C)CCCCC2)cc1`, the inhibition was inactive: 2.45%.
With `O=C(O)C1(Nc2ccccc2)CCN(Cc2ccccc2)CC1`, the inhibition was inactive: -5.9%.
Consider `COc1ccc(C(c2nnnn2C2CCCCC2)N2CCC(n3c(=O)[nH]c4ccccc43)CC2)cc1` (stereo unspecified), for which the inhibition was inactive: 2.92%.
`CC(C)(C)n1nnnc1C(c1ccnc2ccccc12)N1CCC(n2c(=O)[nH]c3ccccc32)CC1` (stereo unspecified): the inhibition was inactive: 1.47%.
The figure for `Cc1ccccc1NC1(C#N)CCN(Cc2ccccc2)CC1` is inactive: -0.13%.
`Cn1c(=O)[nH]cc(N(CCCl)CCCl)c1=O`: the inhibition was inactive: 2.71%.
The figure for `O=C(NCC1(N2CCCCC2)CCCCC1)c1ccco1` is inactive: 2.43%; for `COc1cc(OC)cc(C(=O)NCC2(N3CCCCC3)CCCCC2)c1` it is inactive: -0.534%; for `O=c1[nH]c2ccccc2n1C1CCN(C(c2ccnc3ccccc23)c2nnnn2C2CCCCC2)CC1` (stereo unspecified) it is inactive: -4.61%.
Take `CCC(c1nnnn1C1CCCCC1)N1CCC(n2c(=O)[nH]c3ccccc32)CC1` (stereo unspecified): the inhibition is inactive: 0.588%.
With `COc1cccc(C(c2nnnn2C2CCCCC2)N2CCC(n3c(=O)[nH]c4ccccc43)CC2)c1OC` (stereo unspecified), the inhibition is inactive: -0.975%.
The figure for `CC(=O)N(c1ccccc1)C1CCNCC1` is inactive: 4.95%; for `Cc1ccc(NC2(C#N)CCN(Cc3ccccc3)CC2)cc1` it is inactive: -0.206%.
Regarding `Fc1ccccc1NC1CCN(Cc2ccccc2)CC1`, the inhibition is inactive: -1.17%.
Turning to `Cc1ccc(C(=O)NCC2(N3CCCCC3)CCCCC2)o1`, the inhibition is inactive: 6.52%.
Turning to `O=c1[nH]c2ccccc2n1C1CCN(C(c2ccccc2)c2nnnn2C2CCCC2)CC1` (stereo unspecified), the inhibition was inactive: 1.33%.
For `CCCN1CCC(Nc2cc(OC)cc(OC)c2)CC1`, the inhibition is inactive: -14.6%.
The figure for `c1ccc(CN2CCC(Nc3ccccc3)CC2)cc1` is inactive: 0.513%.
